“And” between values parts separate entries of the source, which are not always exact repeats. Equal entries are not always repeated. Residues, ends and D or L forms follow the SMILES beside them.
Assay: Circular dichroism, secondary structure content (BeStSel)
Format: physicochemical
Details: CD, 30 μM peptide in ddH2O, far-UV 190-260 nm

| SMILES | Others (secondary structure) | α-helix |
| --- | --- | --- |
| COC(=O)[C@H](CCCCN)NC(=O)[C@H](CCCCN)NC(=O)[C@H](CS)NC(=O)[C@H](CS)NC(=O)[C@H](CCCCN)NC(=O)[C@H](Cc1c[nH]c2ccccc12)NC(=O)[C@H](CCCNC(=N)N)NC(=O)[C@H](Cc1c[nH]c2ccccc12)NC(=O)[C@H](CCCNC(=N)N)NC(=O)[C@H](CS)NC(=O)[C@H](CC(=O)O)NC(=O)[C@H](CCSC)NC(=O)[C@H](CCCCN)NC(C)=O [CDP-1] (Ac-KMDCRWRWKCCKK-OMe; C-terminus assumed) | 75% | 25% |
| COC(=O)[C@H](CCCCN)NC(=O)[C@H](CCCCN)NC(=O)[C@H](CO)NC(=O)[C@H](CO)NC(=O)[C@H](CCCCN)NC(=O)[C@H](Cc1c[nH]c2ccccc12)NC(=O)[C@H](CCCNC(=N)N)NC(=O)[C@H](Cc1c[nH]c2ccccc12)NC(=O)[C@H](CCCNC(=N)N)NC(=O)[C@H](CO)NC(=O)[C@H](CC(=O)O)NC(=O)[C@H](CCSC)NC(=O)[C@H](CCCCN)NC(C)=O [CDP-2] (Ac-KMDSRWRWKSSKK-OMe) | 97% | 3% and < 7% |
